Laboratory results: PubChem BioAssay AID504761 (Drosophila RNAi Screening Center, 2011)
Assay: 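Genome-wide fly cell screen for genes dengue virus requires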 (primary screen). Cells: D.Mel-2 cells from Drosophila. Reagents: long dsRNA against Drosophila genes. Treatment: infection with dengue virus type 2; dose and infection time not stated. Measurement: 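Cells stained for dengue envelope protein and imaged; percent of infected cells per well on duplicate plates, ranked by infection, with stained nuclei counted for cell number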. Reading the numbers: infection score: higher = more virus-infected cells. Active means: 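Very low infection ranking in both replicate wells (chance probability at most 0.065), then a retest showing infection dropped 1.5-fold or more at p below 0.05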. Meaning of the calls: active = confirmed: knock-down lowers infection; inactive = not picked or not confirmed.
The deposit covers about 22,000 reagents; below is a random part of those with a known target gene and a result. Over the whole deposit, 116 (0.52%) were called active. 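Calls depend on retest data that are not deposited; infection was ranked per plate without normalising between plates; the unit of the infection score is not given.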 A number with no mark means an inactive call. Not all columns of the deposit are shown. Reagent sequences are not shown. The record does not give: the amount of reagent, the time to read-out.

What did the screen give for CG14851 (GeneID 41763) [DRSC14975]?
infection score, replicate 1: 2.68

For CG14851 (GeneID 41763) [DRSC21500], what does the deposit list?
infection score, replicate 1: 0.57 (active)

For CG14851 (GeneID 41763) [DRSC27841], what was measured?
infection score, replicate 1: 12.5

Which result is listed for CG16719 (GeneID 39131) [DRSC10222]?
infection score, replicate 1: 7.64

For mri (GeneID 38028) [DRSC08259], what does the deposit list?
infection score, replicate 1: 8.11

What did the screen give for mri (GeneID 38028) [DRSC27787]?
infection score, replicate 1: 7.47

What is on record for Gagr (GeneID 39824) [DRSC10441]?
infection score, replicate 1: 9.1

With Lrr47 (GeneID 34449) [DRSC03365], what does the deposit list?
infection score, replicate 1: 1.87

For CG6996 (GeneID 40212) [DRSC10758], how do the results read?
infection score, replicate 1: 1.91

Called active (from the list above):
CG14851 (GeneID 41763) [DRSC21500] | infection score, replicate 1: 0.57 (active)

More records follow:
What is on record for danr (GeneID 43020) [DRSC14651]?
infection score, replicate 1: 3.55

With danr (GeneID 43020) [DRSC27029], how do the results read?
infection score, replicate 1: 2.8

With nemy (GeneID 36395) [DRSC05357], what does the deposit list?
infection score, replicate 1: 1.69

What did the screen give for nemy (GeneID 36395) [DRSC07262]?
infection score, replicate 1: 15

For nemy (GeneID 36395) [DRSC26532], how do the results read?
infection score, replicate 1: 3.05
